Data reported in patent US6509359B1, “Pyrrolidin-2-one compounds and their use as neuraminidase inhibitors” (priority 1997, dated 2003).

By UniProt entry, the sequences of proteins in these tests, tags left out.
UniProt P06820, whole entry, looked up: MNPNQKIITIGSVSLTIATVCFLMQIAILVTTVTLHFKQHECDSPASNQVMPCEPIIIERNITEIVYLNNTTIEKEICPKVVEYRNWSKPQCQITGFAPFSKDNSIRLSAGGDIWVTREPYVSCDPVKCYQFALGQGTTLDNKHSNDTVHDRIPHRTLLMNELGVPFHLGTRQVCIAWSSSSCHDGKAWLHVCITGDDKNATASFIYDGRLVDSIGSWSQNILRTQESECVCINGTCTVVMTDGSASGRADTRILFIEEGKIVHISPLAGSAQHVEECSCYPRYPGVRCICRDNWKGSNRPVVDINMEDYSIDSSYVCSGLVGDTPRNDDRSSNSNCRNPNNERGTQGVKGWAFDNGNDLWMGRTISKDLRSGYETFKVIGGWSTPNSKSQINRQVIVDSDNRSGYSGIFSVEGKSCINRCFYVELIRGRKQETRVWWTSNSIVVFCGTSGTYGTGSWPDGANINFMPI

Target: influenza neuraminidase (N2) (Influenza A virus, UniProt P06820)
Assay type: biochemical, influenza virus Type A
Conditions: read-out: Neuraminidase Inhibition Activity IC50, N2

Substance: 1-[4-Carboxy-2-(pentylaminolphenyl]-5,5-bis(hydroxymethyl)pyrrolidin-2-one [Example 13]
- IC50: 36.4 µM
